A mixed list of measured activities; the numbers were collected in NIAID ChemDB.

Common to all: whole-cell or culture tests

MIC50, MIC90 and the like: level of inhibition, or share of isolates inhibited.

structure | species | strain or isolate | changes | cells | read by | endpoint | tested at | result
O=c1[nH]c(=O)n([C@H]2C[C@H](O)[C@@H](CO)O2)cc1I | Varicella zoster virus | HIRAI |  | HELF | plaque count | inhibition | 0.1 µg/mL | 0%
Nc1c(S(=O)(=O)[O-])cc2cc(S(=O)(=O)[O-])ccc2c1O | Herpes simplex virus |  |  | Human amnion AV3 cells | cytopathic effect | inhibition | 10 µg/mL | 0%
CCOC(=O)/C=C/[C@H](C[C@@H]1CCNC1=O)NC(=O)[C@@H](CC(=O)[C@@H](NC(=O)c1cc(C)on1)C(C)C)Cc1ccc(F)cc1 | Rhinovirus | Isolate 33 |  | OHIO HELA-I | cytopathic effect / visual reading | EC50 |  | 0.02 µg/mL
CO[C@H]1/C=C/O[C@@]2(C)Oc3c(C)c(O)c4c(O)c(c(/C=N/N5CCN(C6CCCC6)CC5)c(O)c4c3C2=O)NC(=O)/C(C)=C\C=C\[C@H](C)[C@H](O)[C@@H](C)[C@@H](O)[C@@H](C)[C@H](OC(C)=O)[C@@H]1C | Mycobacterium avium intracellulare | 15-Feb |  |  |  | MIC |  | 0.5 µg/mL
Nc1cc(S(=O)(=O)[O-])cc2cc(S(=O)(=O)[O-])ccc12 | Adenovirus | TYPE 3 |  | Human embryonic lung cells | cytopathic effect | inhibition | 10 µg/mL | 0%
Oc1ccccc1N=Cc1ccc2c(c1)OCO2 | Cryptococcus neoformans | F-10 |  |  |  | MIC99 |  | 11.3 µg/mL
O=C1Nc2ccc(F)c(F)c2[C@@](/C=C/C2CC2)(C(F)(F)F)N1 | HIV-1 |  | RT-K103N P225H |  |  | fold resistance |  | 100
Nc1nc2c(ncn2COCCO)c(=O)[nH]1 | Varicella zoster virus | HIRAI |  | HELF | plaque count | inhibition | 1 µg/mL | 92%
CCC(O)CN(NC(=O)Nc1cc(C(F)(F)F)cc(C(F)(F)F)c1)C(=O)Nc1cc(C(F)(F)F)cc(C(F)(F)F)c1 | Klebsiella pneumoniae | KL21 |  |  |  | MIC |  | >300 µM
CC(C)Nc1nc2cc(Cl)c(Cl)cc2n1[C@H]1O[C@@H](CO)[C@H](O)[C@@H]1O | Human cytomegalovirus | C9003 |  | MRC-5 | plaque count | EC50 |  | 0.56 µM
Oc1ccccc1N=Cc1ccccc1 | Cryptococcus gattii | L-28/02 |  |  |  | MIC99 |  | 8 µg/mL
Nc1ccc2cc([N+](=O)[O-])cc(S(=O)(=O)[O-])c2c1 | Adenovirus | TYPE 3 |  | Human embryonic lung cells | cytopathic effect | inhibition | 5 µg/mL | 10%
COc1ccc(-n2c(C(=O)NCc3cccc(OC)c3C)c3n(c2=O)CCN(C(=O)c2ccc(Br)c(Cl)c2)C3)cc1 | Hepatitis B virus |  |  | HepG2.117 | PCR | EC50 |  | 0.1–0.5 µM
CC(N)CC(C(=O)Nc1cc(C(F)(F)F)cc(C(F)(F)F)c1)C(=O)Nc1cc(C(F)(F)F)cc(C(F)(F)F)c1 | Escherichia coli | ES142 |  |  |  | MIC |  | >300 µM
O=C(NCc1ccc(Cl)cc1)c1c[nH]c2c(F)cccc2c1=O | Human cytomegalovirus | LYS |  |  | plaque count | EC50 |  | 12 µM
O=c1[nH]c(=O)n([C@@H]2O[C@H](CO)[C@@H](O)[C@@H]2O)cc1/C=C/Br | Varicella zoster virus | Ohtomo |  | HELF | plaque count | inhibition | 0.0001 µg/mL | 85%
O=C(NNC(=O)Nc1ccccc1C(F)(F)F)Nc1cc(C(F)(F)F)cc(C(F)(F)F)c1 | Escherichia coli | ES142 |  |  |  | MIC |  | >300 µM
C=CCc1ccc(O)c(OC)c1 | Candida tropicalis | 105 |  |  | turbidity | MIC90 |  | 475 µg/mL
COc1ccc(-n2c(-c3ccccc3)c3n(c2=O)CCN(C(=O)c2ccc(Cl)c(Cl)c2)C3)cc1 | Hepatitis B virus |  |  | HepG2.117 | PCR | EC50 |  | >5 µM
Cc1nc(NCCCCNc2ccnc3cc(Cl)ccc23)nc(-c2ccccc2)c1C(=O)OC(C)C | Cryptococcus neoformans | 27JF |  |  |  | MIC99 |  | 16 µg/mL
O=C1Nc2ccc(F)c(F)c2[C@@](C#CC2CC2)(C(F)(F)F)N1 | HIV-1 |  | RT-K103N P225H |  |  | fold resistance |  | 38.9
Cc1cn([C@@H]2O[C@H](CO)[C@@H](O)[C@@H]2F)c(=O)nc1N | Varicella zoster virus | YS |  | HELF | plaque count | inhibition | 0.001 µg/mL | 8%
Nc1nc2c(ncn2C=C2CC2CO)c(=O)[nH]1 | Human cytomegalovirus | VR6200 (ganciclovir-susceptible) |  |  | plaque count | EC90 |  | 4.8 µM
COc1cccc(C)c1CNC(=O)c1c2n(c(=O)n1-c1ccc(OCC(F)(F)F)cc1)CCN(C(=O)c1ccc(Br)c(Cl)c1)C2 | Hepatitis B virus |  |  | HepG2.117 | PCR | EC50 |  | 0.1–0.5 µM
C/C=C/C/C=C/CCC(=O)[C@H]1O[C@H]1C(N)=O | Escherichia coli | UB1005 (TLM-S) |  |  |  | MIC |  | 20 µg/mL
Oc1ccccc1N=Cc1cccc(O)c1O | Cryptococcus neoformans | C-3-1 |  |  |  | MIC99 |  | 2.8 µg/mL
Cc1cc(-c2ccc(N=Nc3c(S(=O)(=O)O)cc4cc(S(=O)(=O)O)cc(N)c4c3O)c(C)c2)ccc1N=Nc1c(S(=O)(=O)O)cc2cc(S(=O)(=O)O)cc(N)c2c1O | Herpes simplex virus |  |  | Human conjunctiva cells | cytopathic effect | inhibition | 10 µg/mL | 100%
NC(=NC1CCCC1)c1ccc(-c2ccc(-c3ccc(C(N)=NC4CCCC4)cc3)o2)cc1 | Candida albicans | Isolate CA2601 fluconazole-resistant |  |  |  | MFC |  | 50 µg/mL
Cc1nc(NCCCCNc2ccnc3cc(Cl)ccc23)nc(-c2ccccc2[N+](=O)[O-])c1C(=O)OC(C)C | Cryptococcus gattii | 547/OTTI-97-PI-10 |  |  |  | MIC99 |  | 16 µg/mL
O=C(Nc1cccc(C2=NCCN2)c1)Nc1cccc(C(F)(F)F)c1 | Escherichia coli | ES142 |  |  |  | MIC |  | 150 µM
C=Cc1cn([C@@H]2O[C@H](CO)[C@@H](O)[C@@H]2O)c(=O)[nH]c1=O | Varicella zoster virus | HIRAI |  | HELF | plaque count | inhibition | 0.01 µg/mL | 8%
O=S(=O)([O-])c1ccccc1S(=O)(=O)[O-] | Adenovirus | TYPE 3 |  | Human embryonic lung cells | cytopathic effect | inhibition | 10 µg/mL | 0%
Nc1nc2c(ncn2COC(CO)CO)c(=O)[nH]1 | Human cytomegalovirus |  |  | MRC-5 | virus yield | EC50 |  | >25 µM
CCOC(=O)c1cnc(NCCCCNc2ccnc3cc(Cl)ccc23)nc1C | Cryptococcus neoformans | F-10 |  |  |  | MIC99 |  | 4 µg/mL
O=[N+]([O-])c1cc([N+](=O)[O-])c2ccc(S(=O)(=O)O)cc2c1O | Adenovirus | TYPE 3 |  | Human amnion AV3 cells | cytopathic effect | inhibition | 10 µg/mL | 15%

For reference, 4 entries again:

structure,species,strain or isolate,changes,cells,read by,endpoint,tested at,result
O=[N+]([O-])c1cc([N+](=O)[O-])c2ccc(S(=O)(=O)O)cc2c1O,Adenovirus,TYPE 3,,Human amnion AV3 cells,cytopathic effect,inhibition,10 µg/mL,15%
COc1ccc(-n2c(-c3ccccc3)c3n(c2=O)CCN(C(=O)c2ccc(Cl)c(Cl)c2)C3)cc1,Hepatitis B virus,,,HepG2.117,PCR,EC50,,>5 µM
O=C1Nc2ccc(F)c(F)c2[C@@](C#CC2CC2)(C(F)(F)F)N1,HIV-1,,RT-K103N P225H,,,fold resistance,,38.9
C=CCc1ccc(O)c(OC)c1,Candida tropicalis,105,,,turbidity,MIC90,,475 µg/mL

ECn: concentration that inhibits the pathogen or its effect by n%. Two numbers with a dash give a range or band. Fold resistance has wild type as its base. Blank or dashed fields: not listed here. Rows are shuffled and stem from different studies. Inhibition is in % at the dose shown (toxicity tests: loss of growth or viability).